Test results from patent US20110136106A1, “METHODS FOR DETECTING RICIN AND RELATED COMPOUNDS AND USES THEREOF” (published 2011).

Molecular target: RTA (Ricinus communis, UniProt P02879)
Assay: Adenine-luciferase assay of RTA stem-loop catalysis at neutral pH, with or without ribosomes
Conditions: 60S or 80S ribosomes present

Q: How did the “stem-loop catalysis by RTA in the presence of ribosomes” value turn out when 5′-CGCGCGdAGAGCGCG-3′ was run?
A: only adenine released from ribosome depurination was observed
